Two substances from US5089479A, “Adhesion of Mycoplasma pneumoniae and Mycoplasma hominus to sulfatide” (priority 1988, dated 1992) can be followed below.

The test has as its system M. pneumoniae. Put plainly: M. pneumoniae adhesion to immobilized glycoproteins adsorbed on plastic. Type of test: binding, Mycoplasma pneumoniae strain M129. The settings on record: for M. pneumoniae adhesion to immobilized glycoprotein (in words): adsorbed on plastic. The protocol: Glycoproteins dissolved in 0.01 M sodium phosphate buffer, pH 7.4, containing 150 mM NaCl, 1 mM CaCl2, and 0.01% NaN3 were adsorbed onto plastic polyvinylchloride […] microtiter plates by incubation for 16 hours at 4° C. The unbound proteins were removed, and the wells were filled with tris-BSA and incubated for 30 minutes at room temperature. The wells were rinsed with RPMI1640 containing 25 mM HEPES, pH 7.3, and 1% bovine serum albumin. M. pneumoniae strain M129 labelled with [^3 H]-palmitate were dispersed in RPMI-BSA by passing four times through a 26 gauge needle, and 50 μl of the suspension was applied to the wells. After incubation for 60 minutes at 37° C., the wells were washed five times with saline and the labelled M. pneumoniae bound to the proteins were quantified by scintillation counting in Aquasol. […]
Adhesion of labelled M. pneumoniae to WiDr cells on glass cover slips was determined as described previously. For inhibition studies, dextran sulfate and 3'-sialyllactose were dissolved in RPMI-BSA and the pH was adjusted to 7.4 with NaOH. The inhibitors were added to wells containing washed cover slips with attached WiDr cells or blank cover slips preincubated in medium or tris-BSA. Labelled M. pneumoniae were added immediately and incubated with slow rocking for sixty minutes at 37° C. After the coverslips were washed by dipping six times in saline, bound M. pneumoniae were determined by scintillation counting in Aquasol. In FIG. 6, [^3 H]-labelled M. pneumoniae, 630,000 cpm/5×10^5 CCU, were incubated in microtiter wells coated in duplicate with laminin ( .circle. ) , fetuin (.largecircle.), hCG,, or transferrin (.quadrature.) at the indicated concentrations. After washing to remove the unbound organisms, the bound mycoplasma were determined by scintillation counting. Binding to uncoated wells was 3% of the applied radioactivity.
FIG. 7 illustrates the effect of neuraminidase treatment on M. pneumoniae binding to immobilized glycoproteins. Microtiter wells were coated with fetuin (circles), hCG (squares), or α-subunit of hCG (triangles) and treated for sixteen hours with 0.05 U/ml neuraminidase (Closed symbols) in sodium acetate buffer, pH 5.5, or buffer alone (open symbols). [^3 H]-labelled M. pneumoniae binding was determined as described above.
^1 Binding of [^3 H]-M. pneumoniae was determined to polyvinyl
chloride microtiter wells coated with 0.006 to 2 μg of the respective
proteins. Relative binding activities of the proteins were determined by
the amount of protein required to give half maximal binding of mycoplasma
and are expressed relative to fetuin which was assigned a value of 1.0.
Results are the mean values of 2 or 3 experiments.

As to “hCG α-subunit: α-subunit of human chorionic gonadotropin”, the “M. pneumoniae adhesion to immobilized glycoprotein (in words)” value (shortened to “M. pneumoniae adhesion”) is “also promotes attachment”. Further, the “M. pneumoniae adhesion” value (listed as o-subunit of hCG) was “as active as the other glycoproteins”. The “M. pneumoniae adhesion” value (listed as α-subunit of hCG) is given as “binds M. pneumoniae as well as the intact protein”.
hCG: human chorionic gonadotropin: the “M. pneumoniae adhesion” value was “dose dependent and saturable adhesion”. Moreover, the “M. pneumoniae adhesion” value (listed as human chorionic gonadotropin) is “promote dose-dependent and saturable adhesion”. Where the note is “relative to fetuin = 1.0, from amount for half maximal binding, mean of 2 or 3 experiments”, this substance returned a Relative binding activity of 0.7.
